Pooled drug test results. Numbers come from NIAID ChemDB, via PubChem.

Common to all: growth or infection tests; organism: Herpes simplex virus 1; cells: VERO; endpoint: EC50

Conditions beyond the fields shown may differ between rows. ECn is the concentration giving n% inhibition of infection, replication or growth. Blank or dashed fields: not listed here. Two numbers with a dash give a range or band.

N#Cc1c(-c2ccc(Cl)cc2)nc(SCCCc2ccccc2)[nH]c1=O ; strain or isolate: McIntyre ; method: plaque count ; result: >20 µM
CCCCC/C=C\C/C=C\CCCCCCCC(=O)OCC(CO[C@@H]1O[C@H](CO)[C@@H](O)[C@H](O)[C@H]1O)OC(=O)CCCCCCC/C=C\C/C=C\CCCCC ; strain or isolate: KOS ; method: plaque count ; result: 50 µg/mL
C[C@H](N)C(=O)OCCOCn1cnc2c(=O)[nH]c(N)nc21 ; strain or isolate: SC16 ; result: 2.8 µM
Nc1nc2c(ncn2COC(CO)CO)c(=O)[nH]1 ; method: cytopathic effect ; result: <0.003 µg/mL
Nc1nc2c(ncn2CCC(CO)CO)c(=O)[nH]1 ; strain or isolate: C1 (101) (TK-) ; method: plaque count ; result: 87 µg/mL
Nc1nc2c(ncn2[C@@H]2C[C@H](CO)[C@H]2CO)c(=O)[nH]1 ; method: cytopathic effect ; result: 0.01–0.1 µM
Nc1ncnc2c1ncn2[C@H]1C[C@]12C[C@H]2CO ; method: plaque count ; result: >50 µM
COc1cc(C(c2ccc(O)cc2)c2ccc(O)cc2)ccc1O ; strain or isolate: KOS ; method: plaque count ; result: 1.8 µg/mL
Cc1cn([C@H]2C[C@H](O)[C@]3(CO)C[C@H]23)c(=O)[nH]c1=O ; method: plaque count ; result: 0.02 µM
COc1nc(N)nc2c1ncn2CCC(CO)CO ; strain or isolate: HFEM ; method: plaque count ; result: 250 µM
Cc1cc([C@@H](O)[C@@H](O)CO)co1 ; strain or isolate: MFPT-resistant-2 ; method: plaque count ; result: 147 µM
Nc1nc2c(ncn2COCCO)c(=O)[nH]1 ; method: plaque count ; result: 45 µg/mL
Cc1cn([C@@H]2O[C@H](CO)[C@@H](O)[C@@H]2F)c(=O)[nH]c1=O ; strain or isolate: F-FIAC-C3 ; method: plaque count ; result: 10 µM
Nc1nc2c(ncn2CCC(CO)CO)c(=O)[nH]1 ; strain or isolate: KT3 ; method: plaque count ; result: 55.7 µM
CC(C)[C@@H](N)C(=O)OCCOCn1cnc2c(=O)[nH]c(N)nc21 ; strain or isolate: SC16 ; result: 2.3 µM
Nc1nc(=O)n([C@@H]2O[C@H](CO)[C@@H](O)[C@@H]2F)cc1I ; strain or isolate: KOS ; method: cytopathic effect ; result: 0.2 µg/mL
COC(=O)C(Cc1c[nH]c2ccccc12)NP(=O)(O)OCC1C/C1=C/n1cnc2c(N)ncnc21 ; method: plaque count ; result: 31 µM
Nc1ccn([C@@H]2O[C@H](CO)[C@@H](O)[C@@H]2O)c(=O)n1 ; strain or isolate: KOS ; method: cytopathic effect ; result: 0.15 µg/mL
CC(=O)c1c(O)c(C(=O)CC(C)C)c(O)c2c1OC(C(C)(C)O)C2 ; method: cytopathic effect ; result: 44.6 µM
OC1=CC2C3C(=C1)O[C@H](c1ccc(O)cc1)[C@@H]3c1cc(O)cc(O)c1[C@@H]2[C@@H](c1ccc(O)cc1)[C@H](c1ccc(O)cc1)[C@H]1c2c(O)cc(O)cc2[C@H]2C3C(=CC(O)=CC31)O[C@H]2c1ccc(O)cc1 ; method: MTT ; result: 27.9 µM
CC[C@@H](C(C)C)[C@H](O)[C@@H](O)[C@@H](C)[C@H]1CC[C@H]2[C@@H]3CC(=O)[C@H]4C[C@@H](Br)CC[C@]4(C)[C@H]3CC[C@]12C ; strain or isolate: F ; method: plaque count ; result: 30.1 µM
CC/C=C/C/C=C/C/C=C/CCCCCCCC(=O)OCC(CO[C@@H]1O[C@H](CO)[C@H](O)[C@H](O)[C@H]1O)OC(=O)CCCCCCC/C=C\C/C=C\CCCCC ; strain or isolate: KOS ; method: plaque count ; result: <50 µg/mL
NCCCCC(N)C(=O)OCCOCn1cnc2c(=O)[nH]c(N)nc21 ; strain or isolate: SC16 ; result: 1.42 µM
COCc1cn([C@@H]2C[C@H](CO)[C@@H](O)C2)c(=O)nc1N ; strain or isolate: KOS 76 ; method: plaque count ; result: 26 µM
Cn1c2c(c(=O)n(C)c1=O)S[C@H]1[C@@H](O2)O[C@H](COc2ccccc2)[C@@H](OCc2ccccc2)[C@@H]1OCc1ccccc1 ; result: >100 µM
O=C1C=C2[C@@H]3C4C(=CC(O)=CC4O[C@H]3c3ccc(O)cc3)C34C(c5ccc(O)cc5)[C@@H]3c3c(O)cc(O)cc3[C@@H]3[C@@H](c5ccc(O)cc5)[C@@H]1C(=O)C234 ; method: MTT ; result: 12.2 µM
O=c1[nH]c(=O)n([C@@H]2O[C@H](CO)[C@@H](O)[C@@H]2F)cc1I ; strain or isolate: F ; method: plaque count ; result: 0.014 µM
CC[C@@H](C(C)C)[C@H](O)[C@@H](O)[C@@H](C)[C@H]1CC[C@H]2[C@@H]3CC(=O)[C@@]4(O)C[C@@H](Br)CC[C@]4(C)[C@H]3CC[C@]12C ; strain or isolate: F ; method: plaque count ; result: 18.7 µM
Nc1ccn([C@H]2O[C@@H](CO)[C@H](O)[C@H]2F)c(=O)n1 ; strain or isolate: F ; method: plaque count ; result: 0.07 µM
CSc1ccc(C(c2ccc(O)cc2)c2ccc(O)cc2)cc1 ; strain or isolate: KOS ; method: plaque count ; result: 3.4 µg/mL
Nc1nc2c(ncn2[C@H]2C[C@]23C[C@H]3CO)c(=O)[nH]1 ; method: plaque count ; result: >50 µM
CC(=O)O[C@H]1O[C@@H](SC2=N/C(=C\c3ccccc3)C(=O)N2c2ccccc2)[C@H](OC(C)=O)[C@@H](OC(C)=O)[C@@H]1OC(C)=O ; strain or isolate: McIntyre ; method: ELISA ; result: >100 µM
Nc1ncnc2c1ncn2[C@@H]1C[C@H](CO)[C@@H](O)[C@@H]1O ; strain or isolate: F-FIAU-C1 ; method: plaque count ; result: 34 µM
O=c1[nH]c(=O)n([C@H]2C[C@H](O)[C@@H](CO)O2)cc1/C=C/Br ; strain or isolate: KOS ; method: cytopathic effect ; result: 0.1 µg/mL
CN(C)CCN1C(=O)c2cccc3cc(N)cc(c23)C1=O ; strain or isolate: HFEM ; method: plaque count ; result: <4 µg/mL
c1c[nH]c2cc3ncnc3cc2c1 ; strain or isolate: KOS ; method: MTT ; result: >100 µM
O=c1[nH]c(=O)n([C@H]2C[C@H](O)[C@@H](CO)O2)cc1I ; method: cytopathic effect ; result: <0.1 µg/mL
Nc1nc(=S)c2ncn(COC(CO)CO)c2[nH]1 ; strain or isolate: F ; method: plaque count ; result: >100 µM
Nc1ncnc2c1ncn2N1C[C@H](CO)[C@H]1CO ; method: cytopathic effect ; result: 33.2 µg/mL
Oc1ccc([C@H]2Oc3cc(O)cc4c3[C@@H]2c2cc(O)cc3c2[C@@H](c2cc(O)cc5c2[C@@H]4[C@H](c2ccc(O)cc2)O5)[C@H](c2ccc(O)cc2)O3)cc1 ; method: MTT ; result: 27.4 µM
CC[C@@H](C(C)C)[C@H](O)[C@@H](O)[C@@H](C)[C@H]1CC[C@H]2[C@@H]3CC(=O)[C@@]4(O)C[C@H](O)[C@H](O)C[C@]4(C)[C@H]3CC[C@]12C ; strain or isolate: F ; method: plaque count ; result: 161.6 µM
CCCCCCCCCC(=O)OCC(CO[C@@H]1O[C@H](CO)[C@@H](O)[C@H](O)[C@H]1O)OC(=O)CCCCCCCCC ; strain or isolate: KOS ; method: plaque count ; result: >50 µg/mL
C[C@H]1/C=C/[C@@]2(C)CC[C@@H](C(C)(C)O)[C@@H]2[C@@H](O)C[C@](C)(O)/C=C/C1 ; method: cytopathic effect ; result: <15 µM
Nc1ncnc2c1ncn2[C@H]1C[C@]12C[C@@H]2CO ; method: plaque count ; result: >50 µM
Nc1nc2c(ncn2[C@H]2C=C[C@@H](CO)CC2)c(=O)[nH]1 ; method: cytopathic effect ; result: 0.1–1 µM
Cc1cn([C@@H]2O[C@H](CO)[C@@H](O)[C@@H]2F)c(=O)[nH]c1=O ; method: cytopathic effect ; result: <0.03 µg/mL
CC(=O)O[C@H]1[C@@H](OC(C)=O)[C@@H](CO[Si](c2ccccc2)(c2ccccc2)C(C)(C)C)O[C@@H](O[C@H]2[C@H](OC(C)=O)[C@H]3Sc4c(n(C)c(=O)n(C)c4=O)O[C@H]3O[C@@H]2CO[Si](c2ccccc2)(c2ccccc2)C(C)(C)C)[C@@H]1OC(C)=O ; result: >100 µM
Cc1cn([C@@H]2C[C@H](O)[C@@H](CO)S2)c(=O)[nH]c1=O ; strain or isolate: E-377 ; method: cytopathic effect ; result: 110.1 µg/mL
C[C@@H]1CC[C@H]2C(C)(C)[C@H](O)CC[C@]2(C)C12Cc1c(O)cc3c(c1O2)COC3=O ; result: >20 µg/mL
C=C(C[C@@H]1C(=C)CC[C@@H]2[C@@]3(C)CCC[C@@]12C(=O)OC3)c1ccoc1 ; result: >20 µg/mL
C=Cc1cn(CC(CO)CO)c(=O)[nH]c1=O ; strain or isolate: KOSSB (TK-) ; method: plaque count ; result: >50 µg/mL
O=c1ccnc2c(Cl)c3[nH][nH]nc3cc12 ; strain or isolate: KOS ; method: MTT ; result: >100 µM
O=c1[nH]c(=O)n([C@H]2C[C@H](O)[C@@H](O)O2)cc1C#Cc1ccc2c3cccc4cccc(c5cccc1c52)c43 ; strain or isolate: KOS ; result: 0.048 µM
Oc1ccc([C@@H]2c3c(O)cc(O)cc3[C@H]3c4c(cc(O)c5c4[C@@H]2[C@H](c2ccc(O)cc2)[C@H]5c2cc(O)cc(O)c2)O[C@@H]3c2ccc(O)cc2)cc1 ; method: MTT ; result: 12.1 µM
Cn1c2c(c(=O)n(C)c1=O)S[C@@H]1[C@H](O2)O[C@H](COc2ccccc2)[C@@H](OCc2ccccc2)[C@@H]1OCc1ccccc1 ; result: >100 µM
Cn1cc(C(=O)NCc2ccc(Cl)cc2)c(=O)c2cc(CN3CCOCC3)ccc21 ; strain or isolate: KOS-M1 ; method: plaque count ; result: >20 µM
CC[C@@H](C(C)C)[C@H](O)[C@@H](O)[C@@H](C)[C@H]1CC[C@H]2[C@@H]3CC(=O)[C@H]4C[C@H](O)[C@H](O)C[C@]4(C)[C@H]3CC[C@]12C ; strain or isolate: B2006 (TK-) ; method: plaque count ; result: 41.8 µM
Nc1ncnc2c1ncn2[C@H]1C[C@@]12C[C@H]2CO ; method: plaque count ; result: >50 µM
O=C(N/C(C(=O)N1CCCCC1)=C(/Cl)c1ccccc1)c1ccccc1 ; result: >81 µM
Nc1nc2c(ncn2[C@@H]2CO[C@H](CO)[C@@H](O)C2)c(=O)[nH]1 ; method: cytopathic effect ; result: 1–10 µM
Nc1ncnc2c1ncn2C[C@@H](CO)OCP(=O)(O)O ; method: cytopathic effect ; result: 22 µM
Nc1ncnc2c1ncn2[C@H]1C[C@@]12C[C@@H]2CO ; method: plaque count ; result: >50 µM
Oc1ccc(C(c2ccc(C(F)(F)F)cc2)c2ccc(O)c(Cl)c2)cc1Cl ; strain or isolate: KOS ; method: plaque count ; result: 4.4 µg/mL
CC[C@@H](C(C)C)[C@@H](O)[C@H](O)[C@@H](C)[C@H]1CC[C@H]2[C@@H]3CC(=O)[C@H]4C[C@@H](Br)CC[C@]4(C)[C@H]3CC[C@]12C ; strain or isolate: B2006 (TK-) ; method: plaque count ; result: 47.6 µM
Cc1ccc(C2NC(=O)C3NC(=O)C(c4cc(O)cc(O)c4)NC(=O)C(NC(=O)C(N)Cc4ccc(O)cc4)Cc4c[nH]c5cc(ccc45)-c4cc3cc(c4O)Oc3ccc(cc3)CC(C(=O)NC(C(=O)O)c3ccc(O)c(O)c3)NC2=O)cc1Cl ; strain or isolate: KOS ; method: plaque count ; result: >25 µg/mL
O=c1ccnc2c(Cl)c3[nH]ccnc3cc12 ; strain or isolate: KOS ; method: MTT ; result: 90 µM
CCCCCCCC/C=C\CCCCCCCC(=O)OCC(CO[C@@H]1O[C@H](CO)[C@@H](O)[C@H](O)[C@H]1O)OC(=O)CCCCCCC/C=C\CCCCCCCC ; strain or isolate: KOS ; method: plaque count ; result: >50 µg/mL
Oc1ccc([C@@H]2c3c(O)cc(O)cc3[C@H]3c4c(cc(O)cc4[C@@H]2[C@H]2c4cc(O)cc5c4[C@@H](c4cc(O)cc(O)c4[C@@H]2c2ccc(O)cc2)[C@H](c2ccc(O)cc2)O5)O[C@@H]3c2ccc(O)cc2)cc1 ; method: MTT ; result: 24.1 µM
[N-]=[N+]=NC(CBr)c1cn(CCC(CO)CO)c(=O)[nH]c1=O ; strain or isolate: KOSSB (TK-) ; method: plaque count ; result: >135 µM
O=c1c2cccc(Cl)c2[nH]c2cc3ccccc3c(O)c12 ; strain or isolate: KOS ; method: plaque count ; result: >100 µM
Nc1nc2c(ncn2COCCOC(=O)[C@H](N)C2CCCN2)c(=O)[nH]1 ; strain or isolate: SC16 ; result: 1.08 µM
CC[C@@H](C(C)C)[C@H](O)[C@@H](O)[C@@H](C)[C@H]1CC[C@H]2[C@@H]3CC(=O)[C@H]4C[C@@H](OC(C)=O)CC[C@]4(C)[C@H]3CC[C@]12C ; strain or isolate: F ; method: plaque count ; result: >39.6 µM

Repeating the first 4 entries:

SMILES | strain or isolate | method | result
N#Cc1c(-c2ccc(Cl)cc2)nc(SCCCc2ccccc2)[nH]c1=O | McIntyre | plaque count | >20 µM
CCCCC/C=C\C/C=C\CCCCCCCC(=O)OCC(CO[C@@H]1O[C@H](CO)[C@@H](O)[C@H](O)[C@H]1O)OC(=O)CCCCCCC/C=C\C/C=C\CCCCC | KOS | plaque count | 50 µg/mL
C[C@H](N)C(=O)OCCOCn1cnc2c(=O)[nH]c(N)nc21 | SC16 | - | 2.8 µM
Nc1nc2c(ncn2COC(CO)CO)c(=O)[nH]1 | - | cytopathic effect | <0.003 µg/mL